B1: S1-RBD-R3-T1-F5 (Ab2-7) (scFv, V domains shown)
VH: QVTLKESGPTRVKPTQTLTLTCTFSGFSLSTTGVGVGWIRQPPGKALEWLALIYWNDDKRYSPSLKSRLTITKDTSKNQVVLTMTNMDPVDTATYYCARISGSGYFYPFDIWGQGTTVTVSS
VL: NFMLTQPHSVSESPGKTVTISCTRSSGSIASNYVQWYQQRPGSSPTTVIYEDNQRPSGVPDRFSGSIDSSSNSASLTISGLKAEDEADYYCQSYDSSSLWVFGGGTKLTVL
notes: also called Ab 2-7 scFv-Fc
B2: Ab_13 (scFv, V domains shown)
VH: QVTLKESGPKLVKPTQTLTLTCTFSGFSLSTSGVGVGWIRQPPGKALEWLALIYWDDDKRYSPSLKSRLTIAKDTSKYQVVLTMTNMDPVDTATYYCARISGSGYFYPFDIWGQGTMVTVSA
VL: NFMLTQPHSVSESPGKTVTISCTRSSGSIASNYVQWYQQRPGSAPTTVIYEDNQRPSGVPDRFSGSIDSSSNSASLTISGLKTEDEADYYCQSYDSSNLWVFGGGTKLTVL
B3: RBD-R3-T1-F4 (Ab2-2) (scFv, V domains shown)
VH: QVQLVQSGGGVVQPGRSLRLSCAASGFTFSHYDMHWVRQAPGKGLEWLAVIGYDGTNLYYADSVKGRFTISRDKSKNTLYLQINSLRAEDTAVYYCARAANYYDSSGYGRADAFDIWGQGTTVTVSS
VL: NFMLTQPHSVSESPGKTVIISCTRTTGSIAGNYVQWYRQRPGSAPTTVIYDDNQRPAGVPDRFSGSVDSSSNSASLTITGLKTEDEADYYCQSYDSGNRGVFGTGTKLTVL
notes: also called Ab 2-2 scFv-Fc
B4: RBD-R3-E1-G7 (Ab2-10) (scFv, V domains shown)
VH: EVQLVESGPGLVKPSETLSLTCTVSGGSISSYYWSWIRQPAGKGLEWIGRIYTSGSTNYNPSLKSRVTMSVDTSKNQFSLKLSSVTAADTAVYYCARDVGFGWFDRWGQGTLVTVSS
VL: NFMLTQPHSVSESPGKTVTISCTRSSGSIASNYVQWYQQRPGSSPTTVIYEDNQRPSGVPDRFSGSIDSSSNSASLTISGLTTEDEADYYCQSFDSASLWVFGGGTKLTVL
notes: also called Ab 2-10 scFv-Fc
B5: S1-R3-T1-H7 (Ab12) (scFv, V domains shown)
VH: EVQLVESGPGVVSPSATLFLTCSVSGGSIRTHSWNWIRQPPGKPLEWIGFIHHSGATNKNPSLKSRVTISSDTSKNEFSLTLTSVTAADTAVYYCARGPGILSYWSRGTLVTVSS
VL: LPVLTQPPSASGTPGQRVTISCSGSSSNIGSNTVNWYQQLPGTAPKLLIYSNNQRPSGVPDRFSGSKSGTSASLAISGLQSEDEADYYCAAWDDSLNVHYVFGSGTKVTVL
notes: also called Ab 12 scFv-Fc
B6: Ab_14 (scFv, V domains shown)
VH: QVQLQQSGPGLVKPSQTLSLTCAISGDSVSSNSAAWNWIRQSPARGLEWLGRTYYRSRWYNDYAISMKSRITINPDTSKNQFSLQLESVTPEDTAVYYCAREIRGFDYWGQGTLVTVSS
VL: QSVLTQPPSASGSPGQSVTISCTGTSSDVGAYNFVSWYQHHPGKAPKLIIYDFNKRPSGVPDRFSGSKSGNTASLTVSGLQADDEADYYCSSYAGSNNFDVVFGGGTKLTVL
notes: also called Ab 14 scFv-Fc
B7: Ab_16 (scFv, V domains shown)
VH: QVQLVQSGGGVVQPGRSLRLSCAASGFTFSNYGMHWVRQAPGKGLEWVALIWERGSKKDYADSVKGRFTVSRDNSKNTLYLQMNSLRPEDTAVYFCAREGISMTGAEYFQHWGQGTLVTVSS
VL: QSVLTQPPSVSGSPGQRVTMSCTGSSSNIGAGYDVHWYQQVPGAAPRLLIYGTNNRPSGVPDRFSGSKSGTSASLTITGLQAEDEADYYCQSYDNSLTDPYVFGTGTKVTVL
notes: also called Ab 16 scFv-Fc
B8: Ab_18 (scFv, V domains shown)
VH: EVQLVQSGGGVVQPGRSLRVSCAASGFSFSRYGMHWVRQAPGKGLEWVAFIRHDGSKKYYADSVEGRFTISRDNSRNTVSLEMNSLRGEDTAVYYCAKDGRLEAALDDWGQGTLVTVSS
VL: NFMLTQPHSMSGSAGKTVTVSCIRSSGSIANNFVQWYQQRPGSAPTTVIYEDNQRPSGVPDRFSGSIDSSSNSASLTISGLKTEDEADYYCQSYDSSNLVFGGGTRLTVL
notes: also called Ab 18 scFv-Fc
B9: Ab_17 (scFv, V domains shown)
VH: QVQLVQSGGGVVQPGRSLRLSCAASGFTFDDYAMHWVRQVPGKGLEWVSGIDWNSGVIGYADSVKGRFTISRDNVKNSLYLQMNSLRTEDSALYYCAKDIGPGGSGSYYAFDIWGQGTTVTVSS
VL: QSALTQPASVSGSPGQSITISCTGTSSDVGGSKYVSWYQQHPGKAPKVMIYDVTKRPSGVPDRFSGSKSGNTASLTISGLQAEDEADYYCAAWDDSLNGVVFGGGTKLTVL
notes: also called Ab 17 scFv-Fc
B10: Ab_19 (scFv, V domains shown)
VH: EVQLVESGAEVKKPGESLKISCKGSGYSFTSYWIGWVRQMPGKGLEWMGIIYPGDSDTRYSPSFQGQVTISADKSISTAYLQWSSLKASDTAMYYCARRGDLDAFDIWGQGTMVTVSS
VL: QPGLTQPPAASGTPGQRVTVSCSGASANIGSNAVSWFKQFPETAPRLLISGNTHRPSGVPDRVSGSKSGTSASLTISGLQSDDEADYYCAAWDDSLNGYVFGSGTKVTVL
notes: also called Ab 19 scFv-Fc
B11: Ab 20 (scFv, V domains shown)
VH: QVQLVQSGGGSVKPGGSLRLSCAASGYRLSDYYMHWVRQAPGKGLEWVANIKQDGSEKYYVDSVKGRFTISRDNAKNSLYLQMNSLRAEDTAVYYCARVRGWSRGYFDYWGQGTLVTVSS
VL: NFMLTQPHSVSESPGKTVTISCTGSSGSIASNYVQWYQQRPGSAPTTVIYEDNQRPSGVPDRFSGSIDSSSNSASLLISGLKTEDEADYYCQSYDSSNHWVFGGGTKLTVL
notes: also called Ab 20 scFv-Fc
B12: Ab 21 (scFv, V domains shown)
VH: QVQLVQSGGGLVQPGGSLRLSCATSGFTFDDYAMHWVRQAPGKGLEWVSGISWNSGSIGYVDSVKGRFTISRDNRNNKVYLQMNNLRAEDTAVYYCARDWWGSIDHWGLGTLVTVSS
VL: QSALTQPRSVSGSPGQSVTISCTGTSSDVGGYDYVSWYQQHPGKAPKLIIYDVSKRPSGVPDRFSGSKSGNTASLTVSGLQAEDEADYYCSSYTSSSPVVFGGGTKLTVL
notes: also called Ab 21 scFv-Fc
B13: Ab 22 (scFv, V domains shown)
VH: QVQLVQSGGGVVQPGRSLRLSCAASGFTFSHYDMHWVRQAPGKGLEWLAVIGYDGTNLYYADSVKGRFTISRDKSKNTLYLQINSLRAEDTAVYYCARAANYYDSSGYGRADAFDIWGQGTTVTVSS
VL: NFMLTQPHSVSESPGKTVIISCTRTTGSIAGNYVQWYRQRPGSAPTTVIYDDNQRPAGVPDRFSGSVDSSSNSASLTITGLKTEDEADYYCQSYDSGNRGVFGTGTKLTVL
notes: also called Ab 22 scFv-Fc
B14: Ab 23 (scFv, V domains shown)
VH: EVQLVQSGAEVKKPGSSVKVSCRSSGGTFSTYGITWVRQAPGQGLEWMGRIIPSLGIPNYAQKFQGRVTITADTSVSTAWMELSSLESDDTAIYYCARENIDLATNDFWGQGTLVTVSS
VL: QSALTQPPSASGSPGQSVTISCTGTSRDIGAYGYVSWYQQVPGKAPKLIIYEVRNRPSGVSSRFSGSKSGNTASLTISGLQAEDEADYYCSSYTSSSTLDVVFGGGTKLTVL
notes: also called Ab 23 scFv-Fc
B15: Ab 25 (scFv, V domains shown)
VH: QVQLVQSGGGLVQPGGSLRLSCAASGFTFSSYWMSWVRQAPGKGLEWVANIKQDGSEKYYVDSVKGRFTISRDNAKNSLYLQMNSLRAEDTAVYYCARGFYYYGAFDIWGQGTTVTVSS
VL: NFMLTQPHSVSESPGKTVTISCTGSSGSIASNYVQWYQQRPGSAPTTVIYEDNQRPSGVPDRFSGSIGSSSNSASLTISGLKTEDEADYYCQSYDSSNHWVFGGGTKLTVL
notes: also called Ab 25 scFv-Fc
B16: Ab 26 (scFv, V domains shown)
VH: QVQLVQSGGGLVQPGRSLRLSCAASGFTFDDYAMHWVRQVPGKGLEWVSGIDWNSGVIGYADSVKGRFTISRDNAKNSLYLQMNSLRAEDTALYYCAKDAYSYGFLGAFDIWGQGTMVTVSS
VL: LPVLTQPPSVSVAPGQTASITCGGDNIRTKGVHWYQQKPGQAPLLVIYYASDRPSGIPERFSGSSSGNTATLTISRVEAGDEADYYCQVWDSSSDLVVFGGGTTLTVL
notes: also called Ab 26 scFv-Fc
B17: Ab 27 (scFv, V domains shown)
VH: QVQLVQSGTEVKKPGASVKVSCKASGYSFTGSHLHWVRQAPGQGLEWMGWINPDSGVINYAQKFQGRVTLTRDTSISTAYMELSGLRSDDTAVYYCARDKAIGYVWALDYWGQGTLVTVSS
VL: QSALTQPPSVSGSPGQSVTISCTGTSSDVGTYNRVSWYQQPPGKAPKLMIYEVSNRPSGVSNRFSGSKSGNTASLTISGLQAEDEADYYCSSYTRTFTYVFGTGTKVTVL
notes: also called Ab 27 scFv-Fc

Columns and labels:
P.1 Spike = P.1 Spike (SARS-CoV-2); assay: biosensor, scFv-Fc loaded at 1 ug/ml, spike in solution at 48.3 nM
B.1.1.7 Spike = B.1.1.7 Spike (SARS-CoV-2); assay: biosensor, scFv-Fc loaded at 1 ug/ml, spike in solution at 48.4 nM
B.1.351 Spike = B.1.351 Spike (SARS-CoV-2); assay: biosensor, scFv-Fc loaded at 1 ug/ml, spike in solution at 48.5 nM

| Binder | Kd (P.1 Spike) | Response (P.1 Spike) | Kd (B.1.1.7 Spike) | Response (B.1.1.7 Spike) | Kd (B.1.351 Spike) | Response (B.1.351 Spike) |
| --- | --- | --- | --- | --- | --- | --- |
| B1 | 7.04 pM | 0.152 | 379 pM | 0.127 | 360 pM | 0.13 |
| B2 | 4.88 pM | 0.112 | 1.91 pM | 0.113 | 735 pM | 0.103 |
| B3 | 8.94 pM | 0.143 | 3.06 pM | 0.135 | 6.53 pM | 0.118 |
| B4 | 6.67 pM | 0.0969 | 682 pM | 0.0939 | 523 pM | 0.103 |
| B5 | 8.55 pM | 0.0718 | 2.73 pM | 0.177 | 1450 pM | 0.0737 |
| B6 | 9.75 pM | 0.27 | 7.98 pM | 0.355 | 3.1 pM | 0.253 |
| B7 | 7.93 pM | 0.35 | 2.36 pM | 0.388 | < 1 pM | 0.405 |
| B8 | 2.97 pM | 0.109 | 9.28 pM | 0.256 | 1340 pM | 0.12 |
| B9 | 8 pM | 0.177 |  |  | 562 pM | 0.199 |
| B10 | 8.94 pM | 0.204 | 10.3 pM | 0.203 | 11.8 pM | 0.258 |
| B11 | 11.2 pM | 0.17 | 2.6 pM | 0.173 | 7.03 pM | 0.213 |
| B12 | 9.52 pM | 0.103 | 1.47 pM | 0.199 | 369 pM | 0.148 |
| B13 | 8.85 pM | 0.136 | 9.13 pM | 0.148 | 3.18 pM | 0.183 |
| B14 | 8.79 pM | 0.123 | 9.11 pM | 0.135 | 7.58 pM | 0.189 |
| B15 | 8.72 pM | 0.0396 | 427 pM | 0.0668 | 1.13 pM | 0.0577 |
| B16 | 10.3 pM | 0.188 | 1.37 pM | 0.336 | 1.78 pM | 0.214 |
| B17 | 8.9 pM | 0.0795 | 1.57 pM | 0.281 | 1.25 pM | 0.0974 |

Reference: US20230374114A1, “Coronavirus antibodies and methods of use thereof” (Dana-Farber, published 2023)
